# Experimental data: patent publication US8207175B2, “Inhibitor compounds” (University Court of the University of Dundee, priority 2005, dated 2012)
# Molecular target: AfChiB1 (Aspergillus fumigatus, UniProt Q873X9)
# Settings: read-out: IC50(AfChiB); Table 4
row,SMILES,IC50 [µM]
1,C=C(Cn1c(=O)c2c(ncn2C)n(C)c1=O)Cn1c(=O)c2c(ncn2C)n(C)c1=O,5.7
2,Cn1cnc2c1c(=O)n(CC(O)Cn1c(=O)c3c(ncn3C)n(C)c1=O)c(=O)n2C,1.4
3,CC(Cn1c(=O)c2c(ncn2C)n(C)c1=O)Cn1c(=O)c2c(ncn2C)n(C)c1=O,12
4,CC(CCn1c(=O)c2c(ncn2C)n(C)c1=O)n1c(=O)c2c(ncn2C)n(C)c1=O (stereo not shown),1.1
